# Measurements reported in PubChem BioAssay AID1478 (National Center for Advancing Translational Sciences (NCATS), 2009).
# Amino acid sequences for entries named in this document (tags omitted). Residues count along the entry.
# UniProt P25779, 123-467 limits assumed: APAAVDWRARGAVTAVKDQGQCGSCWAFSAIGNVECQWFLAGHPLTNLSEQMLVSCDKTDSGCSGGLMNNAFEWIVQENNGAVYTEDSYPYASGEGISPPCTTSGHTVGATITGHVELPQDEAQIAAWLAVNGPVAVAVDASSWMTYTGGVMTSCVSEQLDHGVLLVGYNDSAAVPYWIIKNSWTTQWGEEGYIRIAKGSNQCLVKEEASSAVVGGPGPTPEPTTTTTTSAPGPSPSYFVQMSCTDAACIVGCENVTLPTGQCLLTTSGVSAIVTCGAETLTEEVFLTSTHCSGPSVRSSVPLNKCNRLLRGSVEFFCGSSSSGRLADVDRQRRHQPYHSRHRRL
# Several values for one entry are separate records, joined by “and”; a condition that tells them apart may be missing. Equal entries are not always repeated. Only a part is listed here, and it is no random draw. Activity calls are given as the source filed them. Calls follow the shape of the dose curve; as a rule, active = well fitted inhibition curve with a large enough effect; inconclusive = small, poorly fitted or top-dose-only effect; inactive = flat fitted curve, though single readings scatter.
# Molecular target: Cruzipain (Trypanosoma cruzi) (UniProt P25779)
# Assay: qHTS Assay for Promiscuous and Specific Inhibitors of Cruzain (with detergent);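 also: plate controls were neutral wells for no effect and buffer without enzyme for full effect; nearly all actives have a fitted effect of over 40% in size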
# Conditions: purified cruzain, Z-FR-AMC fluorescence, 0.01% Triton
# In short: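 Cysteine protease activity tested under reducing, mildly acidic conditions (100 mM sodium acetate pH 5.5, 5 mM DTT) plus 0.01% Triton X-100. Cruzain 1.5 nM; substrate Z-FR-AMC 2 uM; 15 min compound preincubation at room temperature.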
row,Structure (SMILES),"max response, negative = inhibition"
1,CN(C(=O)Cc1ccc(Cl)c(Cl)c1)[C@@H]1CCCC[C@H]1N1CCCC1,inactive: -8.99%
2,Clc1n[nH]nc1-c1nn[nH][15n]1,inactive: 0.405%
3,CN(CCCl)Cc1cc(Cl)c(NC2=NCCN2)c(Cl)c1,inactive: -12.2%
4,O=P1(Nc2ccccn2)COc2ccccc2OC1,inactive: -2.19%
5,Cc1ccc(OCC(=O)OC2CN3CCC2CC3)cc1 (centres undefined),inactive: -1.64%
6,O=P1(Nc2ccc(Br)cn2)COc2ccccc2OC1,inactive: 1.17%
7,CP(=O)(Nc1ccc(SC(F)(F)F)cc1)Oc1ccccc1 (centres undefined),inactive: -8.68%
8,COc1ccccc1OP(C)(=O)Nc1c(C)cccc1C (centres undefined),inactive: 6.13%
9,CN1CCCCC1COC(=O)C1(O)c2ccccc2CCc2ccccc21 (centres undefined),inactive: 0.574%
10,O=P1(Nc2ncccn2)COc2ccccc2OC1,inactive: -4.34%
11,COc1cc(C2NCCC3(OCCO3)C2(C)C)cc(OC)c1OC.O=[N+]([O-])c1cc([N+](=O)[O-])c(O)c([N+](=O)[O-])c1 (centres undefined),inactive: -1.82%
12,Cc1nn(-c2ccccc2)c2c1P(=O)(N1CCOCC1)N(C)C(c1ccccc1)=N2 (centres undefined),inactive: 2.69%
13,O=[N+]([O-])c1ccc2c(c1)nnn2O,inactive: -3.95%
14,CC1=NCCc2c1[nH]c1ccccc21.O=[N+]([O-])c1cc([N+](=O)[O-])c(O)c([N+](=O)[O-])c1,inactive: -14.2%
15,O=[N+]([O-])OCC(CO[N+](=O)[O-])(CO[N+](=O)[O-])CO[N+](=O)[O-],inactive: 2.99%
16,Cc1ccc([N+](=O)[O-])cc1[N+](=O)[O-],inactive: 2.29%
17,CCOP1(=S)c2c(C)nn(CCC#N)c2N=C(c2ccc(F)cc2)N1C (centres undefined),inactive: 4.07%

row,Structure (SMILES),"max response, negative = inhibition"
1,CN(C(=O)Cc1ccccc1)[C@@H]1CC[C@]2(CCCO2)C[C@H]1N1CCCC1,inactive: -8.11%
2,NC(=O)Nc1ccc([As](=O)(O)O)cc1,inactive: 0.193% and inactive: 3%
3,O=[N+]([O-])CC(O)c1ccc([N+](=O)[O-])cc1 (centres undefined),inactive: 6.52%
4,O=[As](O)(O)c1ccc([As](=O)(O)O)cc1,inactive: 7.07%
5,CCOP1(=S)c2c(C)nn(CCC#N)c2N=C(c2ccccc2F)N1C (centres undefined),inactive: -1.39%
6,O=[N+]([O-])c1cccc([N+](=O)[O-])c1,inactive: 1.13%
7,O=P(Nc1nccs1)(c1ccccc1)c1nc2ccccc2s1 (centres undefined),inactive: 0.261%
8,CCOP(=O)(Nc1cccc2ccccc12)OCC,inactive: -1.84%
9,Cc1ccc(C)c(NP(C)(=O)Oc2ccccc2)c1 (centres undefined),inactive: -1.18%
10,Cc1cc(C)cc(OP(C)(=O)Nc2ccccn2)c1 (centres undefined),inactive: 7.71%
11,NS(=O)(=O)Cc1ccc([As](=O)(O)O)cc1,inactive: 6.99%
12,O=C(CC(=O)c1ccccc1)O[C@H]1CN2CCC1CC2,inactive: 0.823%
13,Cc1ccc(NCCc2c([N+](=O)[O-])cc([N+](=O)[O-])cc2[N+](=O)[O-])cc1,inactive: -5.3%
14,CCOC(=O)c1ccc(NP(C)(=O)Oc2cc(C)cc(C)c2)cc1 (centres undefined),inactive: -5.66%
15,Cc1cccc(OCC(=O)OC2CN3CCC2CC3)c1 (centres undefined),inactive: 6.99%
16,Cc1cc(C)cc(OP(C)(=O)Nc2ccc(C)cc2C)c1 (centres undefined),inactive: 4.54%
17,CN(C(=O)Cc1ccc(Cl)c(Cl)c1)[C@@H]1CC[C@]2(CCCO2)C[C@H]1N1CCCC1,inactive: 5.57%
